Assay [1] concerns the target T1, huPrP23-231 (human prion protein, residues 23 to 231) (human).
In assay [2] the target is T1, huPrP23-231 (human prion protein, …). This is another data set of the same source.
Assay [3] has the same target. This is another data set of the same source.

B1: ICSM-18 (antibody, V domains shown)
VH: EVQLQQSGPELVKPGSSVKISCKASRNTFTDYNLDWVKQSHGKTLEWIGNVYPNNGVTGYNQKFRGKATLTVDKSSSTAYMELHSLTSEDSAVYYCALYYYDVSYWGQGTLVTVSA
VL: QIVLTQSPAIMSASPGEKVTMTCSASSSVSYMHWYQQKSGTSPKRWIYDTSKLASGVPARFSGSGSGTSYSLTISSMEAEDAATYFCHQWRSNPYTFGGGTKLEIKR
In the case of B1, the “EC50 (read off the curve)” value in assay [1] was about 5 nM. Also, in assay [2], the “IC50 (read off the curve)” value is about 20 nM. Further, in assay [3], the Kd was about 10 nM and the Ki is about 20 nM.

These data come from patent publication US10316099 (D GEN, dated 2019).
